# HIV-1 5' UTR: DMS reactivities by position

From the data files of Ye et al. 2022, doi:10.1038/s41594-022-00746-2.

RNA: 5' end of the HIV-1 NL4-3 genome, made in vitro. Positions 1-437 read:
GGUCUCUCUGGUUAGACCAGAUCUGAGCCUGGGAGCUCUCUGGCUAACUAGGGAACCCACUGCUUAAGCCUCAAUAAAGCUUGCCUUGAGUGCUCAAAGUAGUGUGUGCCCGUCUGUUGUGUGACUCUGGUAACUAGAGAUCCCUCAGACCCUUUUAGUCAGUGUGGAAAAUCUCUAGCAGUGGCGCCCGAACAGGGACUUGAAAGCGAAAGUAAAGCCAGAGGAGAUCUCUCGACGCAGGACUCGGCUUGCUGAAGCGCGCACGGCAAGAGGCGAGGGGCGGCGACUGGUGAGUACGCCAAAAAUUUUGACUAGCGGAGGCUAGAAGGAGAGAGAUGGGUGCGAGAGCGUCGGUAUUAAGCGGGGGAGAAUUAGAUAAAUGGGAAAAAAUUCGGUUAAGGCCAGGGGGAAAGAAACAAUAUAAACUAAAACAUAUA

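Mutant RNA libraries with 1G, 2G or 3G starts, with or without cap, were folded at 37 °C for 30 min. Monomer and dimer bands were cut from native gels after folding in high salt (300 mM KCl, 5 mM MgCl2) or low salt (40 mM KCl, 0.1 mM MgCl2). Gel slices were treated with 170 mM dimethyl sulfate for 15 min at 37 °C and read by mutational profiling against an ethanol control.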

Values are winsor-normalised DMS reactivities of A and C; higher means more reactive, usually unpaired.
One numbering serves 1G, 2G and 3G.
A position is written with its base.

With A271 (domain SL1) the assay gave 3G capped high-salt monomer 0.49; 3G capped low-salt dimer 0.46; 1G uncapped high-salt dimer 0.55; 2G capped low-salt dimer 0.54.
With C274 (domain SL1) the assay gave 3G capped high-salt monomer 0.71; 3G capped low-salt dimer 0.26; 1G uncapped high-salt dimer 0.24; 2G capped low-salt dimer 0.25.
With A276 (domain SL1) the assay gave 3G capped high-salt monomer 1.09; 3G capped low-salt dimer 0.38; 1G uncapped high-salt dimer 0.38; 2G capped low-salt dimer 0.40.
With C281 the assay gave 3G capped high-salt monomer 0.37; 3G capped low-salt dimer 0.37; 1G uncapped high-salt dimer 0.42; 2G capped low-salt dimer 0.40.
With C284 (domain SL2) the assay gave 3G capped high-salt monomer 0.22; 3G capped low-salt dimer 0.15; 1G uncapped high-salt dimer 0.16; 2G capped low-salt dimer 0.15.
With A286 (domain SL2) the assay gave 3G capped high-salt monomer 0.52; 3G capped low-salt dimer 0.58; 1G uncapped high-salt dimer 0.67; 2G capped low-salt dimer 0.61.
With C287 (domain SL2) the assay gave 3G capped high-salt monomer 0.33; 3G capped low-salt dimer 0.45; 1G uncapped high-salt dimer 0.39; 2G capped low-salt dimer 0.40.
With A293 (domain SL2) the assay gave 3G capped high-salt monomer 0.68; 3G capped low-salt dimer 0.80; 1G uncapped high-salt dimer 0.98; 2G capped low-salt dimer 0.83.
With A296 (domain SL2) the assay gave 3G capped high-salt monomer 0.58; 3G capped low-salt dimer 0.56; 1G uncapped high-salt dimer 0.57; 2G capped low-salt dimer 0.60.
With C297 (domain SL2) the assay gave 3G capped high-salt monomer 0.14; 3G capped low-salt dimer 0.13; 1G uncapped high-salt dimer 0.12; 2G capped low-salt dimer 0.13.
With C299 (domain SL2) the assay gave 3G capped high-salt monomer 0.14; 3G capped low-salt dimer 0.06; 1G uncapped high-salt dimer 0.06; 2G capped low-salt dimer 0.06.
With C300 the assay gave 3G capped high-salt monomer 0.11; 3G capped low-salt dimer 0.07; 1G uncapped high-salt dimer 0.06; 2G capped low-salt dimer 0.07.
With A301 the assay gave 3G capped high-salt monomer 0.25; 3G capped low-salt dimer 0.25; 1G uncapped high-salt dimer 0.27; 2G capped low-salt dimer 0.26.
With A302 the assay gave 3G capped high-salt monomer 1.24; 3G capped low-salt dimer 1.14; 1G uncapped high-salt dimer 1.25; 2G capped low-salt dimer 1.16.
With A303 the assay gave 3G capped high-salt monomer 0.07; 3G capped low-salt dimer 0.07; 1G uncapped high-salt dimer 0.08; 2G capped low-salt dimer 0.07.
With A304 the assay gave 3G capped high-salt monomer 0.15; 3G capped low-salt dimer 0.14; 1G uncapped high-salt dimer 0.18; 2G capped low-salt dimer 0.16.
With A305 the assay gave 3G capped high-salt monomer 0.73; 3G capped low-salt dimer 0.68; 1G uncapped high-salt dimer 0.70; 2G capped low-salt dimer 0.68.
With A311 the assay gave 3G capped high-salt monomer 1.21; 3G capped low-salt dimer 1.20; 1G uncapped high-salt dimer 1.35; 2G capped low-salt dimer 1.26.
With C312 (domain SL3) the assay gave 3G capped high-salt monomer 0.12; 3G capped low-salt dimer 0.08; 1G uncapped high-salt dimer 0.08; 2G capped low-salt dimer 0.07.
With A314 (domain SL3) the assay gave 3G capped high-salt monomer 0.03; 3G capped low-salt dimer 0.03; 1G uncapped high-salt dimer 0.04; 2G capped low-salt dimer 0.03.
With C316 (domain SL3) the assay gave 3G capped high-salt monomer 0.10; 3G capped low-salt dimer 0.05; 1G uncapped high-salt dimer 0.05; 2G capped low-salt dimer 0.05.
With A319 (domain SL3) the assay gave 3G capped high-salt monomer 0.83; 3G capped low-salt dimer 0.84; 1G uncapped high-salt dimer 0.94; 2G capped low-salt dimer 0.90.
With C322 (domain SL3) the assay gave 3G capped high-salt monomer 0.02; 3G capped low-salt dimer 0.03; 1G uncapped high-salt dimer 0.04; 2G capped low-salt dimer 0.03.
With A324 (domain SL3) the assay gave 3G capped high-salt monomer 0.17; 3G capped low-salt dimer 0.07; 1G uncapped high-salt dimer 0.07; 2G capped low-salt dimer 0.08.

2 of these entries, quoted again:

- C322 (domain SL3): 3G capped high-salt monomer 0.02; 3G capped low-salt dimer 0.03; 1G uncapped high-salt dimer 0.04; 2G capped low-salt dimer 0.03
- C287 (domain SL2): 3G capped high-salt monomer 0.33; 3G capped low-salt dimer 0.45; 1G uncapped high-salt dimer 0.39; 2G capped low-salt dimer 0.40